This is an account of results in ChEMBL document CHEMBL1201862, “PubChem BioAssay data set” (2004).

The nature of experiment [1]: THP-1 cell cytotoxicity, dose response, cytotoxicity control for non-replicating M. tuberculosis project (AID 489025). It counts as functional.
The nature of experiment [2]: Vero E6 cell cytotoxicity, dose response, cytotoxicity control for non-replicating M. tuberculosis project, secondary assay (AID 492998). It counts as functional, VeroE6. To be noted: Vero C1008.

Activity calls are given as the source filed them. No rule for the calls is given here.

Turning to `O=C(Nc1cccnc1)c1ccc([N+](=O)[O-])s1`, the CC50 (usually the concentration at which the toxic effect on the cells reaches its halfway point) in experiment [1] is active: 13.5 µM; in experiment [2], active: 8.54 µM.
